In patent publication US20060099220A1, “Antibodies against and methods for producing vaccines for respiratory syncytial virus” (MEDIMMUNE, INC., priority 2004, published 2006):
Marks after values point to notes of the source that are not given here. Where no end group is shown, it is not given here.

System: MEDI-524 Mab
Assay: Isothermal titration calorimetry (ITC) of F peptides with MEDI-524 Mab
Format: binding
Conditions: 25 mM His; for ΔHbinding: Mab, at 18° C., pH 6.07
Method: To evaluate the binding properties of the wild-type peptide (SEQ ID NO.28) to Numax™/MEDI-524 by using the ITC technique. The MEDI-524 Mab was titrated with SEQ ID NO.28 in the basis buffer 25 mM His, pH 6 at 10° C. SEQ ID NO.28: (MW=2732.14, no W, Y, or C). A working solution of 55 μM was prepared by diluting 30 μL of a 5 mg/mL peptide solution with 970 μL of 25 mM His, pH 6 buffer to be used for the ITC titrations. A 1.15 μM (0.1706 mg/ml) working solution of MEDI-524 was used for the experiments (MW 148400, A280=1.47).
For this set of experiments, […] (1.16 μM-148.4 KDa) of MEDI-524 Mab and 0.088 mg/mL (1.88 μM-46.3 KDa) of MEDI-524 Fab, both in 25 mM His, pH 6.07 were used. On the other hand, 250 μL of 1 mg/mL of the different peptides dissolved in H2O, were provided by ABC. The peptides were then diluted into the appropriate volume of buffer to give a final concentration of 50 μM. The ITC experiments were run at 18° C. with the macromolecule (Mab or Fab) in the cell, by doing ˜26 injections of 10 μL of peptides, spaced 360 sec with constant stirring. The data fitting was accomplished by subtracting the average value of the few last injections as the buffer and unspecific heat of dilution contributions. […] A note apart is the fact that the observed binding capacity (N) increases with the length of the peptide, indicating possibly an extra conformational factor in the binding event. The entropic contribution: For the peptides SEQ ID NOs.24 and 26, the entropic factor seems to be similar; the extra amino acids at the end of the N-terminal seems not to affect greatly the binding parameters. On the other hand, the elongation at the C-terminal seems to decrease slightly the binding enthalpy, the binding constant, as well as the entropic factor. […] The binding constant seems to be smaller (weaker) for both 30-mer peptides respect to the 26-mer.

Substance	ΔHbinding	binding enthalpy (pH 6 at 10° C.)	binding site detected (pH 6 at 10° C.)	stoichiometry (pH 6 at 10° C.)
NSELLSLIHDMPITNDQKKLMSNNVQIVRQ-NH2 (C-terminus assumed) [SEQ ID NO: 25]	-10.0 kcal/mol	–	–	–
STYMLTNSELLSLIHDMPITNDQKKLMSNN-NH2 (C-terminus assumed) [SEQ ID NO: 26]	−12.6* Kcal/Mol	–	–	–
NSELLSLINDMPITNDQKKLMSNN-NH2 (NSELLSLINDMPITNDQKKLMSNNNH; C-terminal amide; Derived from respiratory syncytial virus sequence) [SEQ ID NO.28]	–	4.8 ± 0.1 kcal/M	1	4
